Data as given in the NIST ThermoML archive (doi:10.1021/je201289w).
Numbers after ± are expanded uncertainties.

Tests used:
[1] = 101.33 kPa, Liquid, Vibrating tube method
[2] = refractive index (Na D-line) (dimensionless); conditions: 101.33 kPa, Liquid, Standard Abbe refractometry

## CCCC[n+]1ccccc1.O=S(=O)(F)[N-]S(=O)(=O)F [1-butylpyridinium bis(fluorosulfonyl)amide]
[1]; 283.15 K
  mass density: 1381.9 ± 2.2 kg/m3
[1]; 288.15 K
  mass density: 1377.7 ± 2.2 kg/m3
[1]; 293.15 K
  mass density: 1373.6 ± 2.2 kg/m3
[1]; 298.15 K
  mass density: 1369.4 ± 2.2 kg/m3
[1]; 303.15 K
  mass density: 1365.2 ± 2.2 kg/m3
[1]; 308.15 K
  mass density: 1361.1 ± 2.2 kg/m3
[1]; 313.15 K
  mass density: 1356.9 ± 2.1 kg/m3
[1]; 318.15 K
  mass density: 1352.8 ± 2.1 kg/m3
[1]; 323.15 K
  mass density: 1348.6 ± 2.1 kg/m3
[1]; 328.15 K
  mass density: 1344.5 ± 2.1 kg/m3
[1]; 333.15 K
  mass density: 1340.4 ± 2.1 kg/m3
[1]; 338.15 K
  mass density: 1336.3 ± 2.1 kg/m3
[1]; 343.15 K
  mass density: 1332.2 ± 2.1 kg/m3
[1]; 348.15 K
  mass density: 1328.1 ± 2 kg/m3
[1]; 353.15 K
  mass density: 1324 ± 2 kg/m3
[2]; 283.15 K
  refractive index: 1.47569 ± 0.00064
[2]; 288.15 K
  refractive index: 1.4742 ± 0.00064
[2]; 293.15 K
  refractive index: 1.47271 ± 0.00064
[2]; 298.15 K
  refractive index: 1.47123 ± 0.00064
[2]; 303.15 K
  refractive index: 1.46975 ± 0.00064
[2]; 308.15 K
  refractive index: 1.46828 ± 0.00064
[2]; 313.15 K
  refractive index: 1.46683 ± 0.00064
[2]; 318.15 K
  refractive index: 1.46537 ± 0.00064
[2]; 323.15 K
  refractive index: 1.4639 ± 0.00064
[2]; 328.15 K
  refractive index: 1.46247 ± 0.00063
[2]; 333.15 K
  refractive index: 1.46103 ± 0.00063
[2]; 338.15 K
  refractive index: 1.45963 ± 0.00063
[2]; 343.15 K
  refractive index: 1.45823 ± 0.00063
[2]; 348.15 K
  refractive index: 1.45677 ± 0.00063
[2]; 353.15 K
  refractive index: 1.45536 ± 0.00063

## CCn1cc[n+](C)c1.O=S(=O)(F)[N-]S(=O)(=O)F [1-ethyl-3-methyl-1H-imidazolium bis(fluorosulfonyl)amide]
[1]; 283.15 K
  mass density: 1455.6 ± 2.5 kg/m3
[1]; 288.15 K
  mass density: 1450.9 ± 2.5 kg/m3
[1]; 293.15 K
  mass density: 1446.2 ± 2.4 kg/m3
[1]; 298.15 K
  mass density: 1441.4 ± 2.4 kg/m3
[1]; 303.15 K
  mass density: 1436.7 ± 2.4 kg/m3
[1]; 308.15 K
  mass density: 1432.1 ± 2.4 kg/m3
[1]; 313.15 K
  mass density: 1427.5 ± 2.4 kg/m3
[1]; 318.15 K
  mass density: 1422.9 ± 2.4 kg/m3
[1]; 323.15 K
  mass density: 1418.4 ± 2.4 kg/m3
[1]; 328.15 K
  mass density: 1413.9 ± 2.3 kg/m3
[1]; 333.15 K
  mass density: 1409.5 ± 2.3 kg/m3
[1]; 338.15 K
  mass density: 1405.1 ± 2.3 kg/m3
[1]; 343.15 K
  mass density: 1400.7 ± 2.3 kg/m3
[1]; 348.15 K
  mass density: 1396.3 ± 2.3 kg/m3
[1]; 353.15 K
  mass density: 1391.9 ± 2.3 kg/m3
[2]; 283.15 K
  refractive index: 1.45179 ± 0.00063
[2]; 288.15 K
  refractive index: 1.45035 ± 0.00063
[2]; 293.15 K
  refractive index: 1.44891 ± 0.00063
[2]; 298.15 K
  refractive index: 1.44747 ± 0.00063
[2]; 303.15 K
  refractive index: 1.44605 ± 0.00063
[2]; 308.15 K
  refractive index: 1.44462 ± 0.00063
[2]; 313.15 K
  refractive index: 1.4432 ± 0.00063
[2]; 318.15 K
  refractive index: 1.44179 ± 0.00063
[2]; 323.15 K
  refractive index: 1.44039 ± 0.00063
[2]; 328.15 K
  refractive index: 1.43899 ± 0.00063
[2]; 333.15 K
  refractive index: 1.43758 ± 0.00063
[2]; 338.15 K
  refractive index: 1.43619 ± 0.00063
[2]; 343.15 K
  refractive index: 1.43481 ± 0.00063
[2]; 348.15 K
  refractive index: 1.43342 ± 0.00063
[2]; 353.15 K
  refractive index: 1.43207 ± 0.00063

## CC[n+]1cccc(C)c1.O=S(=O)(F)[N-]S(=O)(=O)F [1-ethyl-3-methylpyridinium bis(fluorosulfonyl)amide]
[1]; 283.15 K
  mass density: 1420 ± 2.4 kg/m3
[1]; 288.15 K
  mass density: 1415.7 ± 2.3 kg/m3
[1]; 293.15 K
  mass density: 1411.4 ± 2.3 kg/m3
[1]; 298.15 K
  mass density: 1407.1 ± 2.3 kg/m3
[1]; 303.15 K
  mass density: 1402.9 ± 2.3 kg/m3
[1]; 308.15 K
  mass density: 1398.6 ± 2.3 kg/m3
[1]; 313.15 K
  mass density: 1394.3 ± 2.3 kg/m3
[1]; 318.15 K
  mass density: 1390.1 ± 2.3 kg/m3
[1]; 323.15 K
  mass density: 1385.8 ± 2.2 kg/m3
[1]; 328.15 K
  mass density: 1381.6 ± 2.2 kg/m3
[1]; 333.15 K
  mass density: 1377.4 ± 2.2 kg/m3
[1]; 338.15 K
  mass density: 1373.1 ± 2.2 kg/m3
[1]; 343.15 K
  mass density: 1368.9 ± 2.2 kg/m3
[1]; 348.15 K
  mass density: 1364.7 ± 2.2 kg/m3
[1]; 353.15 K
  mass density: 1360.5 ± 2.2 kg/m3
[2]; 283.15 K
  refractive index: 1.47636 ± 0.00064
[2]; 288.15 K
  refractive index: 1.47489 ± 0.00064
[2]; 293.15 K
  refractive index: 1.47341 ± 0.00064
[2]; 298.15 K
  refractive index: 1.47194 ± 0.00064
[2]; 303.15 K
  refractive index: 1.47048 ± 0.00064
[2]; 308.15 K
  refractive index: 1.46897 ± 0.00064
[2]; 313.15 K
  refractive index: 1.46754 ± 0.00063
[2]; 318.15 K
  refractive index: 1.46611 ± 0.00063
[2]; 323.15 K
  refractive index: 1.46466 ± 0.00064
[2]; 328.15 K
  refractive index: 1.46322 ± 0.00063
[2]; 333.15 K
  refractive index: 1.4618 ± 0.00063
[2]; 338.15 K
  refractive index: 1.46036 ± 0.00063
[2]; 343.15 K
  refractive index: 1.45899 ± 0.00063
[2]; 348.15 K
  refractive index: 1.45757 ± 0.00063
[2]; 353.15 K
  refractive index: 1.45612 ± 0.00064
